Source: PubChem BioAssay AID504761 (Drosophila RNAi Screening Center, 2011)
In all, the deposit lists about 22,000 reagents; shown is an unselected part of those with a known target gene and a result. Of all reagents, 116 (0.52%) were called active. 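Calls depend on retest data that are not deposited; infection was ranked per plate without normalising between plates; the unit of the infection score is not given.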 Raw values are not corrected between plates. Not stated in the record: the amount of reagent, the time to read-out.

Screen: 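Genome-wide fly cell screen for genes dengue virus requires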 (primary screen)
Cell system: D.Mel-2 cells from Drosophila
Reagent: long dsRNA against Drosophila genes
Treatment: infection with dengue virus type 2; dose and infection time not stated
Measurement: 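Cells stained for dengue envelope protein and imaged; percent of infected cells per well on duplicate plates, ranked by infection, with stained nuclei counted for cell number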
Direction: infection score: higher = more virus-infected cells; cell count: higher = more cells in the well
Call rule: 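Very low infection ranking in both replicate wells (chance probability at most 0.065), then a retest showing infection dropped 1.5-fold or more at p below 0.05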
Calls: active = confirmed: knock-down lowers infection; inactive = not picked or not confirmed

wde (windei) [DRSC05955]: infection score, replicate 1 = 3.64; infection score, replicate 2 = 3.45; cell count, replicate 1 = 6314; cell count, replicate 2 = 6660; activity call = inactive
myo (myoglianin) [DRSC17174]: infection score, replicate 1 = 2.64; infection score, replicate 2 = 6.26; cell count, replicate 1 = 6243; cell count, replicate 2 = 6755; activity call = inactive
CG3819 [DRSC10378]: infection score, replicate 1 = 1.93; infection score, replicate 2 = 3.64; cell count, replicate 1 = 6596; cell count, replicate 2 = 6429; activity call = inactive
CG3819 [DRSC27675]: infection score, replicate 1 = 11.7; infection score, replicate 2 = 2.26; cell count, replicate 1 = 6110; cell count, replicate 2 = 6691; activity call = inactive

Laid out differently: results already given
| Gene | amplicon | infection score, replicate 1 | infection score, replicate 2 | cell count, replicate 1 | cell count, replicate 2 | activity call |
| --- | --- | --- | --- | --- | --- | --- |
| CG3819 | DRSC10378 | 1.93 | 3.64 | 6596 | 6429 | inactive |
| CG3819 | DRSC27675 | 11.7 | 2.26 | 6110 | 6691 | inactive |

More entries follow:
LIMK1 (LIM domain kinase 1) [DRSC19811]: infection score, replicate 1 = 1.05; infection score, replicate 2 = 3.07; cell count, replicate 1 = 6768; cell count, replicate 2 = 6423; activity call = inactive
Cad96Ca (Cadherin 96Ca) [DRSC14220]: infection score, replicate 1 = 4.16; infection score, replicate 2 = 2.59; cell count, replicate 1 = 6421; cell count, replicate 2 = 6484; activity call = inactive
Cad96Ca (Cadherin 96Ca) [DRSC16693]: infection score, replicate 1 = 11.7; infection score, replicate 2 = 0.73; cell count, replicate 1 = 6368; cell count, replicate 2 = 6611; activity call = inactive
mRpL48 (mitochondrial ribosomal protein L48) [DRSC00506]: infection score, replicate 1 = 7.96; infection score, replicate 2 = 27.4; cell count, replicate 1 = 6710; cell count, replicate 2 = 6518; activity call = inactive
barr (barren) [DRSC03488]: infection score, replicate 1 = 3.92; infection score, replicate 2 = 8.39; cell count, replicate 1 = 3471; cell count, replicate 2 = 2204; activity call = inactive
yps (ypsilon schachtel) [DRSC25035]: infection score, replicate 1 = 3.13; infection score, replicate 2 = 3.57; cell count, replicate 1 = 6043; cell count, replicate 2 = 5879; activity call = inactive
Mgat3 [DRSC01305]: infection score, replicate 1 = 5.78; infection score, replicate 2 = 4.25; cell count, replicate 1 = 6318; cell count, replicate 2 = 5889; activity call = inactive
Mgat3 [DRSC29398]: infection score, replicate 2 = 10.1; cell count, replicate 1 = 262; cell count, replicate 2 = 2665; activity call = inactive
CG18327 [DRSC06722]: infection score, replicate 1 = 3.78; infection score, replicate 2 = 2.67; cell count, replicate 1 = 6834; cell count, replicate 2 = 6738; activity call = inactive
CG18327 [DRSC24393]: infection score, replicate 1 = 2.64; infection score, replicate 2 = 3.44; cell count, replicate 1 = 6591; cell count, replicate 2 = 6771; activity call = inactive
